# Test results reported in paper PMC9312377.
# Target: recombinant A(H1N1)pdm09 PAN E23G (Influenza A virus, UniProt C3W5S0, DEL51-57/DEL61-72/E23G/E59G)
# Test: Modified thermofluor assay, BXA-rPAN thermal stabilization
# Conditions: for SYPRO Orange signal: 37uM BXA
compound,measurement,setting,value
O=C1c2c(O)c(=O)ccn2N([C@@H]2c3ccccc3SCc3c2ccc(F)c3F)[C@@H]2COCCN12,SYPRO Orange signal,30 °C,10458.6 RFU and 10802.3 RFU and 9705.67 RFU
same,SYPRO Orange signal,31 °C,10908.1 RFU and 11315.3 RFU and 9849.1 RFU
same,SYPRO Orange signal,32 °C,11051 RFU and 11753.3 RFU and 10442.9 RFU
same,SYPRO Orange signal,33 °C,11109.2 RFU and 11797.6 RFU and 10595 RFU
same,SYPRO Orange signal,34 °C,11875.6 RFU and 11710 RFU and 11644.9 RFU
same,SYPRO Orange signal,35 °C,12461.9 RFU and 11871.8 RFU and 11604.2 RFU
same,SYPRO Orange signal,36 °C,12266 RFU and 11981.8 RFU and 11480.6 RFU
same,SYPRO Orange signal,37 °C,12699.9 RFU and 12213.9 RFU and 11760.1 RFU
same,SYPRO Orange signal,38 °C,12009.8 RFU and 11767.7 RFU and 11591.2 RFU
same,SYPRO Orange signal,39 °C,11764.1 RFU and 12086 RFU and 11749.7 RFU
same,SYPRO Orange signal,40 °C,11829.9 RFU and 11723.1 RFU and 12006.4 RFU
same,SYPRO Orange signal,41 °C,11905.7 RFU and 12013.1 RFU and 11760.3 RFU
same,SYPRO Orange signal,42 °C,12222.1 RFU and 11702 RFU and 11895.1 RFU
same,SYPRO Orange signal,43 °C,12328.5 RFU and 12349.6 RFU and 11431.8 RFU
same,SYPRO Orange signal,44 °C,11940.1 RFU and 12036.8 RFU and 11250.2 RFU
same,SYPRO Orange signal,45 °C,11722 RFU and 12194 RFU and 11517.2 RFU
same,SYPRO Orange signal,46 °C,11846.4 RFU and 12595 RFU and 11862.3 RFU
same,SYPRO Orange signal,47 °C,12267.5 RFU and 12636.6 RFU and 11943.9 RFU
same,SYPRO Orange signal,48 °C,12316.5 RFU and 13103.6 RFU and 12158 RFU
same,SYPRO Orange signal,49 °C,12462 RFU and 13412 RFU and 11917.8 RFU
same,SYPRO Orange signal,50 °C,12398.7 RFU and 13609.5 RFU and 12138.9 RFU
same,SYPRO Orange signal,51 °C,12905.9 RFU and 13855.7 RFU and 12166.3 RFU
same,SYPRO Orange signal,52 °C,13016.6 RFU and 13797.2 RFU and 12064.3 RFU
same,SYPRO Orange signal,53 °C,12958.2 RFU and 13808 RFU and 11956.7 RFU
same,SYPRO Orange signal,54 °C,12744.2 RFU and 13945 RFU and 12022.8 RFU
same,SYPRO Orange signal,55 °C,13066.8 RFU and 14197.7 RFU and 12314 RFU
same,SYPRO Orange signal,56 °C,13349.2 RFU and 14428.6 RFU and 12371 RFU
same,SYPRO Orange signal,57 °C,13820.6 RFU and 14300.8 RFU and 12565.4 RFU
same,SYPRO Orange signal,58 °C,13762.4 RFU and 14677.4 RFU and 12603.2 RFU
same,SYPRO Orange signal,59 °C,13980.7 RFU and 15526.4 RFU and 12994.8 RFU
same,SYPRO Orange signal,60 °C,13970.3 RFU and 15543.5 RFU and 12819.5 RFU
same,SYPRO Orange signal,61 °C,14242.9 RFU and 15468.2 RFU and 12797.3 RFU
same,SYPRO Orange signal,62 °C,14021.1 RFU and 15976.1 RFU and 13547.6 RFU
same,SYPRO Orange signal,63 °C,14521.4 RFU and 16694.9 RFU and 13339.6 RFU
same,SYPRO Orange signal,64 °C,15307.2 RFU and 17825.7 RFU and 14343.9 RFU
same,SYPRO Orange signal,65 °C,16129.8 RFU and 18625.3 RFU and 14560.6 RFU
same,SYPRO Orange signal,66 °C,16257.7 RFU and 19875.6 RFU and 15467.2 RFU
same,Tm (°C) with BXA,"A(H1N1)pdm09 PAN E23G 2 μM, BXA 37 μM",76 °C and 76.0 ± 0.1 °C
same,ΔTm (°C),"A(H1N1)pdm09 PAN E23G, DMSO vs BXA 37 μM",23.1 ± 0.3 °C
same,SYPRO Orange signal,"Panel A, E23G, 67 °C",17554.3 RFU and 21131.6 RFU and 16645 RFU
same,SYPRO Orange signal,"Panel A, E23G, 68 °C",18515.2 RFU and 22200.8 RFU and 18408.1 RFU
same,SYPRO Orange signal,"Panel A, E23G, 69 °C",19220.1 RFU and 23669.8 RFU and 19731.4 RFU
same,SYPRO Orange signal,"Panel A, E23G, 70 °C",20383.4 RFU and 24941.5 RFU and 20685.3 RFU
same,SYPRO Orange signal,"Panel A, E23G, 71 °C",22540.5 RFU and 26133.5 RFU and 22626.2 RFU
same,SYPRO Orange signal,"Panel A, E23G, 72 °C",25470.5 RFU and 28579.7 RFU and 25185.7 RFU
same,SYPRO Orange signal,"Panel A, E23G, 73 °C",31873.5 RFU and 35905.8 RFU and 32061.2 RFU
same,SYPRO Orange signal,"Panel A, E23G, 74 °C",45292.2 RFU and 50174.9 RFU and 44675.6 RFU
same,SYPRO Orange signal,"Panel A, E23G, 75 °C",68475.2 RFU and 75516.3 RFU and 67310.1 RFU
same,SYPRO Orange signal,"Panel A, E23G, 76 °C",104853 RFU and 113188 RFU and 102292 RFU
same,SYPRO Orange signal,"Panel A, E23G, 77 °C",149989 RFU and 159075 RFU and 146651 RFU
same,SYPRO Orange signal,"Panel A, E23G, 78 °C",189742 RFU and 197904 RFU and 186592 RFU
same,SYPRO Orange signal,"Panel A, E23G, 79 °C",212787 RFU and 217414 RFU and 209934 RFU
same,SYPRO Orange signal,"Panel A, E23G, 80 °C",220286 RFU and 224449 RFU and 218367 RFU
same,SYPRO Orange signal,"Panel A, E23G, 81 °C",220094 RFU and 222208 RFU and 217303 RFU
same,SYPRO Orange signal,"Panel A, E23G, 82 °C",215136 RFU and 217076 RFU and 213878 RFU
same,SYPRO Orange signal,"Panel A, E23G, 83 °C",211339 RFU and 212409 RFU and 210113 RFU
same,SYPRO Orange signal,"Panel A, E23G, 84 °C",206268 RFU and 207691 RFU and 205828 RFU
same,SYPRO Orange signal,"Panel A, E23G, 85 °C",200786 RFU and 203730 RFU and 200512 RFU
same,SYPRO Orange signal,"Panel A, E23G, 86 °C",195141 RFU and 204418 RFU and 195689 RFU
same,SYPRO Orange signal,"Panel A, E23G, 87 °C",188066 RFU and 207015 RFU and 191621 RFU
same,SYPRO Orange signal,"Panel A, E23G, 88 °C",183863 RFU and 199446 RFU and 186050 RFU
same,SYPRO Orange signal,"Panel A, E23G, 89 °C",177710 RFU and 188123 RFU and 180819 RFU
same,SYPRO Orange signal,"Panel A, E23G, 90 °C",171586 RFU and 182456 RFU and 176246 RFU
same,SYPRO Orange signal,"Panel A, E23G, 91 °C",163514 RFU and 178817 RFU and 172008 RFU
same,SYPRO Orange signal,"Panel A, E23G, 92 °C",159610 RFU and 173319 RFU and 166826 RFU
same,SYPRO Orange signal,"Panel A, E23G, 93 °C",151215 RFU and 165739 RFU and 161512 RFU
same,SYPRO Orange signal,"Panel A, E23G, 94 °C",148685 RFU and 156746 RFU and 157154 RFU
same,SYPRO Orange signal,"Panel A, E23G, 95 °C",141997 RFU and 152694 RFU and 151570 RFU
same,SYPRO Orange signal,"Panel A, E23G, 96 °C",136709 RFU and 149275 RFU and 145739 RFU
same,SYPRO Orange signal,"Panel A, E23G, 97 °C",134511 RFU and 143908 RFU and 140967 RFU
same,SYPRO Orange signal,"Panel A, E23G, 98 °C",127272 RFU and 135311 RFU and 137303 RFU
same,SYPRO Orange signal,"Panel A, E23G, 99 °C",118086 RFU and 122507 RFU and 134718 RFU

# Several values for one entry are separate records, joined by “and”; a condition that tells them apart may be missing. Equal values may be shown once.
